Laboratory results published in article PMC11450120, “One-pot synthesis, characterization and antiviral properties of new benzenesulfonamide-based spirothiazolidinones” (Molecular Diversity, 2024).

Test system: Madin-Darby canine kidney (MDCK) cells
Settings: dog

NC(=O)c1ncn([C@@H]2O[C@H](CO)[C@@H](O)[C@H]2O)n1 [Ribavirin, reference compound]
Cytotoxicity MCC (minimal cytotoxic concentration): 100 µM
